A mixed list of measured activities; the numbers were collected in NIAID ChemDB.

All rows: enzyme or target tests; species: HIV-1; protein: Reverse transcriptase; read-out: fold resistance

Neighbouring rows are from separate reports. Fold resistance: result on the changed form divided by that on wild type. An empty or dashed field is not shown.

smiles | strain | changes | method | result
CCN1c2ncccc2C(=O)N(C)c2ccc(-c3cccc(N)c3)nc21 |  | RT-Y181C | nucleotide incorporation | 1.8
Cc1c(C(C)c2c(F)cccc2F)nc(SC2CCCC2)[nH]c1=O |  | RT-K103N | nucleotide incorporation / radiometric | 6
CCC1(c2cccc(Cl)c2)Cc2ccccc2-n2cccc2C1=O |  | RT-Y188L | nucleotide incorporation / radiometric | >3
Nc1ccn([C@H]2CC[C@@H](COP(=O)(O)OP(=O)(O)OP(=O)(O)O)O2)c(=O)n1 |  | RT-P225H | nucleotide incorporation / radiometric | 0.65
Cc1c(Sc2ccccc2)n(COCCO)c(=O)[nH]c1=O |  | RT-I135T |  | 4
CCc1c(Sc2ccccn2)n(COCc2ccccc2)c(=O)[nH]c1=O |  | RT-Y188H |  | 1
Cc1c(Cc2c(F)cccc2F)nc(SCc2ccc([N+](=O)[O-])cc2)[nH]c1=O |  | RT-181I | nucleotide incorporation / radiometric | ~1
CCC1(c2cccc(COc3ccccc3)c2)Oc2ccccc2-n2cccc2C1=O |  | RT-L100I | nucleotide incorporation / radiometric | 1.875
O=C(Nc1nnc(-c2ccc3c(c2)CCCC3)o1)C1=COCCO1 | NL4-3 | Y181C | RT activity / nucleotide incorporation / luminescence | 10
CCC1(c2ccc(Cn3ccsc3=N)cc2)Oc2ccccc2-n2cccc2C1=O |  | RT-V106A | nucleotide incorporation / radiometric | >6.25
Cc1cc(C)cc(S(=O)(=O)c2c(C(=O)NNCCO)[nH]c3ccc(Cl)cc23)c1 |  | RT-K103N | nucleotide incorporation / radiometric | 17
Nc1nc2c(ncn2[C@H]2CC[C@@H](COP(=O)(O)OP(=O)(O)OP(=O)(O)O)O2)c(=O)[nH]1 |  | RT-V106A | nucleotide incorporation / radiometric | 1.23
CCc1cc(CCc2nc3ccccc3o2)c(=S)[nH]c1C |  | RT-Y181C | nucleotide incorporation | 190
Nc1ncnc2c1ncn2[C@H]1CC[C@@H](COP(=O)(O)OP(=O)(O)OP(=O)(O)O)O1 |  | RT-A62V V75I F77L F116Y Q151M | nucleotide incorporation | 8.6
CCOCn1c(Cc2ccccc2)c(C(C)C)c(=O)[nH]c1=O |  | RT-V106A P225H | nucleotide incorporation / radiometric | 109
CCCN(C)C(=O)Oc1nsnc1-c1c(Cl)cccc1Cl | IIIB-R (RT-Y181C) | RT-Y181C | nucleotide incorporation | 209
Cc1cc(SC2=C(O)C[C@@](CCc3ccc(O)cc3)(C(C)C)OC2=O)c(C(C)(C)C)cc1CO |  | RT-I84V | HPLC / absorbance | 1.8
COc1cc(CSc2nc(Cc3c(F)cccc3F)c(C)c(=O)[nH]2)cc(OC)c1 |  | RT-K103N | nucleotide incorporation / radiometric | ~1
CCC1(c2ccc(COc3cccc(Cl)c3)cc2)Oc2ccccc2-n2cccc2C1=O |  | RT-Y188L | nucleotide incorporation / radiometric | >100
CCc1c(Sc2ccccn2)n(COCc2ccccc2)c(=O)[nH]c1=O |  | RT-L100I | RT activity | 3
Cc1cn([C@H]2C=C[C@@H](COP(=O)(O)OP(=O)(O)OP(=O)(O)O)O2)c(=O)[nH]c1=O |  | RT-T139V | nucleotide incorporation / radiometric | 0.7
C/C=C/CSc1cc(NC(=S)c2ccsc2C)ccc1Cl |  | RT-P236L |  | 1.13
COc1ccc(Sc2nc(Cc3c(Cl)cccc3Cl)c(C)c(=O)[nH]2)cn1 |  | Y181I |  | >114
CC(C)=CCN1Cc2cccc3[nH]c(=S)n(c23)C[C@@H]1C |  | RT-E138K |  | 2.37
CCC1(c2cccc(N)c2)Oc2ccccc2-n2cccc2C1=O |  | RT-V106A | nucleotide incorporation / radiometric | 5.3
Nc1nc2c(ncn2[C@@H]2C=C[C@H](COP(=O)(O)OP(=O)(O)OP(=O)(O)O)C2)c(=O)[nH]1 |  | RT-M184V |  | 3.03
CCC1(c2ccc(I)cc2)Oc2ccccc2-n2cccc2C1=O |  | RT-Y188L | nucleotide incorporation / radiometric | 22.5
Cc1c(Cc2c(Cl)cccc2Cl)nc(SCc2ccc3c(c2)C(=O)c2ccccc2C3=O)[nH]c1=O |  | RT-K103N | nucleotide incorporation / radiometric | >114
CCC1(c2ccc(CNc3ccccc3)cc2)Oc2ccccc2-n2cccc2C1=O |  | RT-Y188L | nucleotide incorporation / radiometric | >111
CC(C)=CCN1Cc2cccc3[nH]c(=S)n(c23)C[C@@H]1C |  | RT-L100I | RT activity | >22
CCN1c2ncccc2C(=O)N(C)c2ccc(-c3c[nH]c4cnccc34)nc21 |  | RT-V106A | nucleotide incorporation | 6.55
Cc1cn([C@H]2CC[C@@H](COP(=O)(O)OP(=O)(O)OP(=O)(O)O)O2)c(=O)[nH]c1=O |  | RT-Y181I | RT activity | 3.5
O=P(O)(O)OP(=O)(O)O |  | RT-H208Y |  | 2.2
Cc1occc1C(=S)Nc1ccc(Cl)c(/C=N/OC(C)(C)C)c1 |  | RT-E138K |  | 1.55
Cc1c(Cc2c(F)cccc2F)nc(Sc2ccc(F)cc2F)[nH]c1=O |  | RT-K103N |  | >13.3
Nc1ncnc2c1ncn2[C@H]1CC[C@@H](COP(=O)(O)OP(=O)(O)OP(=O)(O)O)O1 |  | RT-L74V T215Y K219Q | ELISA | 5.28
CC(C)=CCOc1cc(NC(=S)c2ccoc2C)ccc1Cl |  | RT-E138K |  | 0.66
CCc1c(Sc2ccccc2)n(COCc2ccccc2)c(=O)[nH]c1=O |  | RT-T181C | RT activity | 96
Cc1cc(S(N)(=O)=O)ccc1NC(=O)COc1ccc(Cl)cc1C(=O)c1cc(Cl)cc(C#N)c1 |  | RT-Y188C | fluorescence | 1.72
CCN1c2ncccc2C(=O)N(C)c2ccc(-c3ncc[nH]3)nc21 |  | RT-Y181C | nucleotide incorporation | 0.2
CCCCN(C)C(=O)Oc1nsnc1-c1c(Cl)cccc1Cl | IIIB-R (RT-Y181C) | RT-Y181C | nucleotide incorporation | 34.4
CCC1(c2ccc(CCc3ccccc3)cc2)Oc2ccccc2-n2cccc2C1=O |  | RT-K103N | nucleotide incorporation / radiometric | >58.8
Cc1c(Sc2ccccc2)n(COCCO)c(=O)[nH]c1=O |  | RT-Y188L | nucleotide incorporation | >33.3
Cc1cn([C@H]2CC[C@@H](COP(=O)(O)OP(=O)(O)OP(=O)(O)O)O2)c(=O)[nH]c1=O |  | RT-M184V |  | 2.53
CCN(C)C(=O)Oc1nsnc1-c1c(Cl)cccc1Cl | IIIB-R (RT-Y181C) | RT-Y181C | nucleotide incorporation | 415
Cc1cn([C@@H]2C=C[C@H](COP(=O)(O)OP(=O)(O)OP(=O)(O)O)O2)c(=O)[nH]c1=O |  | RT-M184V |  | 107
Nc1ncnc2c1ncn2[C@@H]1O[C@H](COP(=O)(O)OP(=O)(O)OP(=O)(O)O)C[C@@H]1F |  | RT-Q151M | nucleotide incorporation | 1.5
CN(C)P(=O)(c1ccccc1)c1c(C(N)=O)[nH]c2ccc(Cl)cc12 |  | RT-Y181C |  | >3.57
Nc1ccn([C@H]2CC[C@@H](COP(=O)(O)OP(=O)(O)OP(=O)(O)O)O2)c(=O)n1 |  | RT-L74V | ELISA | 1.96
Cc1c(Cc2c(F)cccc2F)nc(Sc2ccccc2)[nH]c1=O |  | Y181I |  | >12.5
CCOc1ccc(CSc2nc(Cc3c(Cl)cccc3Cl)c(C)c(=O)[nH]2)cc1 |  | RT-181I | nucleotide incorporation / radiometric | >200
Cc1c(Cc2c(Cl)cccc2Cl)nc(Sc2ccc(C#N)cc2)[nH]c1=O |  | RT-K103N |  | >17.4
Nc1nc2c(ncn2[C@H]2CC[C@@H](COP(=O)(O)OP(=O)(O)OP(=O)(O)O)O2)c(=O)[nH]1 |  | RT-E138K |  | 0.293
Cc1cc(SC2=C(O)C[C@@](CCc3ccc(N)cc3)(C(C)C)OC2=O)c(C(C)(C)C)cc1CO |  | RT-I84V | HPLC / absorbance | 2.6

The first 4 rows once more:

smiles,strain,changes,method,result
CCN1c2ncccc2C(=O)N(C)c2ccc(-c3cccc(N)c3)nc21,,RT-Y181C,nucleotide incorporation,1.8
Cc1c(C(C)c2c(F)cccc2F)nc(SC2CCCC2)[nH]c1=O,,RT-K103N,nucleotide incorporation / radiometric,6
CCC1(c2cccc(Cl)c2)Cc2ccccc2-n2cccc2C1=O,,RT-Y188L,nucleotide incorporation / radiometric,>3
Nc1ccn([C@H]2CC[C@@H](COP(=O)(O)OP(=O)(O)OP(=O)(O)O)O2)c(=O)n1,,RT-P225H,nucleotide incorporation / radiometric,0.65